Compound potency records, mixed from different reports. Data source: NIAID ChemDB in PubChem.

Common to all: tests in culture; organism: HIV-1; read by: RT activity; read-out: EC50

Conditions beyond the fields shown may differ between rows. An empty or dashed field is not shown. ECn: concentration that inhibits the pathogen or its effect by n%.

SMILES	cells	conditions	strain or isolate	changes	value
Nc1nc(=O)n([C@@H]2C[C@H](O)[C@@H](CO)O2)cc1-c1cccs1	H9		IIIB		>10 µg/mL
CC(C)Nc1cccnc1N1CCN(C(=O)c2cc3cc(NS(C)(=O)=O)ccc3[nH]2)CC1	MT-4		HxB2D(RT-D67G)	RT-D67G	0.003 µM
CC(C)(C)C(=O)OCCSP(=O)(OC[C@@H]1CC[C@H](n2cnc3c(N)ncnc32)O1)SCCOC(=O)C(C)(C)C	CEM + CEM TK-		LAI		0.00012 µM
CC(C)OC(=O)OCOP(=O)(CO[C@H](C)Cn1cnc2c(N)ncnc21)OCOC(=O)OC(C)C	PBMC		LAI		0.01 µM
Nc1nc2c(ncn2[C@@H]2C[C@H](COP(=O)(O)O)[C@@H](O)[C@H]2O)c(=O)o1	CEM		IIIB		62 µg/mL
Nc1nc(Cl)nc2c1ncn2[C@@H]1C[C@@H](O)[C@H](CO)O1	CEM + CEM-SS				>10 µM
Cc1c(OC(=O)CCCCOc2ccc(C[C@H](N)C(=O)O)cc2)cccc1C(=O)N[C@@H](CSc1ccccc1)[C@H](O)CN1C[C@H]2CCCC[C@H]2C[C@H]1C(=O)NC(C)(C)C	CEM + CEM-SS		LAI		0.021 µM
CC(C)(C)NC(=O)[C@@H]1C[C@@H]2CCCC[C@@H]2CN1C[C@@H](O)[C@H](Cc1ccccc1)NC(=O)[C@H](CC(N)=O)NC(=O)c1ccc2ccccc2n1	MT-2		MN		0.003 µM
Nc1nc(=O)n([C@@H]2C[C@H](O)[C@@H](CO)O2)cc1-c1ccncc1	H9		IIIB		>10 µg/mL
Nc1nc2c(ncn2[C@@H]2C[C@H](CO)[C@@H](O)[C@H]2O)c(=O)o1	H9		IIIB		>500 µg/mL
CC(C)(C)NC(=O)[C@@H]1C[C@@H]2CCCC[C@@H]2CN1C[C@@H](OC(=O)CCCCOc1ccc(C[C@H](N)C(=O)O)cc1)[C@H](Cc1ccccc1)NC(=O)[C@H](CC(N)=O)NC(=O)c1ccc2ccccc2n1	CEM + CEM-SS		LAI		0.039 µM
CC(C)(C)NC(=O)[C@@H]1C[C@@H]2CCCC[C@@H]2CN1C[C@@H](O)[C@H](Cc1ccccc1)NC(=O)[C@H](CC(N)=O)NC(=O)c1ccc2ccccc2n1	PBMC		Subtype B isolate		0.011 µM
Nc1nc2c(ncn2[C@H]2C=C[C@@H](CO)O2)c(=O)o1	H9		IIIB		155 µg/mL
Cc1cn([C@H]2C[C@H](N=[N+]=[N-])[C@@H](CO)O2)c(=O)[nH]c1=O	PBMC		LAI		0.004 µM
CC(C)(C)NC(=O)[C@@H]1CN(Cc2cccnc2)CCN1C[C@@H](O)C[C@@H](Cc1ccccc1)C(=O)N[C@H]1c2ccccc2C[C@H]1OC(=O)CCCCO[C@H]1O[C@H](CO)[C@@H](O)[C@H](O)[C@@H]1O	CEM + CEM-SS		LAI		0.071 µM
Nc1nc(NC2CC2)c2ncn([C@H]3C=C[C@@H](CO)C3)c2n1	PBMC		LAI		0.3 µM
Nc1nc2c(ncn2[C@H]2CO[C@@H](CO)O2)c(=O)[nH]1	CBMC		HXB2D		0.21 µM
Cc1cn([C@H]2C[C@H](N=[N+]=[N-])[C@@H](CO)O2)c(=O)[nH]c1=O	PBMC		BaL		0.008 µM
Nc1nc(=O)n([C@H]2CO[C@@H](CO)S2)cc1F	MT-4		HXB2D		3 µM
Cc1cn([C@H]2C[C@H](F)[C@@H](CO)O2)c(=O)[nH]c1=O	MT-4		IIIB		0.005 µM
CC(=O)SCCOP(=O)(OCCSC(C)=O)OC[C@@H]1CC[C@H](n2cc(C)c(=O)[nH]c2=O)O1	CEM + CEM-SS		LAI		1.7 µM
Nc1ccn([C@H]2CC[C@@H](CO)O2)c(=O)n1	MT-2		HX(RT-S156A)	RT-S156A	0.29 µM
O=c1[nH]cnc2c1ncn2[C@H]1CC[C@@H](CO)O1	MT-4		RF		0.68 µM
CC(C)(C)NC(=O)[C@@H]1CN(Cc2cccnc2)CCN1C[C@H](C[C@@H](Cc1ccccc1)C(=O)N[C@H]1c2ccccc2C[C@H]1OC(=O)CCCCO[C@H]1O[C@H](CO)[C@@H](O)[C@H](O)[C@@H]1O)OC(=O)CCCCO[C@H]1O[C@H](CO)[C@@H](O)[C@H](O)[C@@H]1O	CEM + CEM-SS		LAI		0.44 µM
Nc1nc(N)c2ncn([C@H]3CO[C@@H](CO)O3)c2n1	Jurkat cells		IIIB		1.37 µM
Nc1nc(=O)n([C@@H]2CS[C@H](CO)O2)cc1F	PBMC		LAI		0.008 µM
C[C@]12CC[C@H](OS(=O)(=O)O)CC1=CC[C@@H]1[C@@H]2CC[C@]2(C)C(=O)CC[C@@H]12	PBMC		LAV		82.3 µM
O=c1[nH]cnc2c1ncn2[C@H]1CC[C@@H](CO)O1	CEM + CEM TK-		LAI		0.95 µM
O=C(CNC(=O)C(=O)/C=C(\O)c1cccn1Cc1ccc(F)cc1)OC[C@@H]1C=C[C@H](n2ccc(=O)[nH]c2=O)O1	MT-4		IIIB		>10 µM
CC(C)=CCN1Cc2cccc3[nH]c(=S)n(c23)C[C@@H]1C	PBMC		Group O isolate		5.4 µM
Cc1cn([C@H]2C=C[C@@H](COC(=O)CNC(=O)C(=O)/C=C(\O)c3cccn3Cc3ccc(F)cc3)O2)c(=O)[nH]c1=O	CEM + CEM-SS		LAI		3 µM
Nc1nc(=O)n([C@@H]2CO[C@H](CO)S2)cc1F	CBMC		HXB2D (RT-M184V)	RT-M184V	9 µM
O=c1[nH]cnc2c1ncn2[C@H]1CC[C@@H](CO)O1	MT-2		HX(RT-S156A)	RT-S156A	1.8 µM
Nc1ncnc2c1ncn2[C@H]1CC[C@@H](CO)O1	CEM + CEM-SS		LAI		0.54 µM
Cc1cn([C@H]2C=C[C@@H](COC(=O)CCNC(=O)C(=O)/C=C(\O)c3cc(OCc4ccccc4)cc(OCc4ccccc4)c3)O2)c(=O)[nH]c1=O	PBMC		BaL		0.93 µM
Cc1cn([C@H]2CC[C@@H](CO)O2)c(=O)[nH]c1=O	CEM + CEM TK-		LAI		>100 µM
Nc1nc(=O)n([C@H]2C[C@H](O)[C@@H](CO)O2)cc1-c1cccnc1	H9		IIIB		>10 µg/mL
CC(C)(C)NC(=O)[C@@H]1C[C@@H]2CCCC[C@@H]2CN1C[C@@H](OC(=O)CCCCO[C@H]1O[C@H](CO)[C@@H](O)[C@H](O)[C@@H]1O)[C@H](Cc1ccccc1)NC(=O)[C@H](CC(N)=O)NC(=O)c1ccc2ccccc2n1	CEM + CEM-SS		LAI		0.484 µM
COCCNC(=O)[C@@H](NC(=O)[C@H](Cc1ccc(OC)c(OC)c1OC)C[C@H](O)[C@H](Cc1ccccc1)NC(=O)OC(C)(C)C)C(C)C	MT-2		MN		0.0017 µM
Cc1cn([C@H]2C[C@H](N=[N+]=[N-])[C@@H](CO)O2)c(=O)[nH]c1=O	MT-4		HxB2D(RT-D67G)	RT-D67G	0.019 µM
CC(C)(C)NC(=O)[C@@H]1C[C@@H]2CCCC[C@@H]2CN1C[C@@H](O)[C@H](Cc1ccccc1)NC(=O)[C@H](CC(N)=O)NC(=O)c1ccc2ccccc2n1	Macrophage		BaL		0.017 µM
CC(=O)SCCOP(=O)(OCCSC(C)=O)OC[C@@H]1CC[C@H](n2cnc3c(N)ncnc32)O1	CEM + CEM-SS		LAI		0.00056 µM
O=C1CCN(CCOc2ccc(Cl)cc2C(=O)c2cc(Cl)cc(Cl)c2)C(=O)N1		pseudotyped		V106A	>10 µM
CC(C)(C)NC(=O)[C@@H]1C[C@@H]2CCCC[C@@H]2CN1C[C@@H](O)[C@H](Cc1ccccc1)NC(=O)[C@H](CC(N)=O)NC(=O)c1ccc2ccccc2n1	CEM + CEM-SS		LAI		0.009 µM
Fc1ccccc1CCNC(=S)Nc1ccc(Br)cn1	PBMC		IIIB		<0.001 µM
Nc1nc2c(ncn2[C@@H]2O[C@H](CO)[C@@H](O)[C@H]2O)c(=O)o1	H9		IIIB		>500 µg/mL
Nc1nc(Cl)nc2c1ncn2[C@H]1O[C@@H](CO)[C@@H](O)[C@@H]1O	CEM + CEM-SS				>10 µM
S=C(NCCc1ccccc1Cl)Nc1ccc(Br)cn1	PBMC		IIIB		<0.001 µM
O=c1[nH]cnc2c1ncn2[C@H]1CC[C@@H](CO)O1	MT-4		HXB2-D184 (RT-M184V)	RT-M184V	39.8 µM
Cc1cc(C)cc(C(=O)c2cc(Cl)ccc2OCCN2CCC(=O)NC2=O)c1		pseudotyped		V106A	>10 µM
Nc1nc(=O)n([C@@H]2C[C@H](O)[C@@H](CO)O2)cc1-c1ccoc1	H9		IIIB		>10 µg/mL

A second listing of 4 rows from above:

Nc1nc(N)c2ncn([C@H]3CO[C@@H](CO)O3)c2n1 ; cells: Jurkat cells ; strain or isolate: IIIB ; value: 1.37 µM
Cc1cn([C@H]2C[C@H](N=[N+]=[N-])[C@@H](CO)O2)c(=O)[nH]c1=O ; cells: PBMC ; strain or isolate: LAI ; value: 0.004 µM
Cc1c(OC(=O)CCCCOc2ccc(C[C@H](N)C(=O)O)cc2)cccc1C(=O)N[C@@H](CSc1ccccc1)[C@H](O)CN1C[C@H]2CCCC[C@H]2C[C@H]1C(=O)NC(C)(C)C ; cells: CEM + CEM-SS ; strain or isolate: LAI ; value: 0.021 µM
Nc1nc(=O)n([C@@H]2C[C@H](O)[C@@H](CO)O2)cc1-c1cccs1 ; cells: H9 ; strain or isolate: IIIB ; value: >10 µg/mL